Pooled drug test results. Numbers come from NIAID ChemDB, via PubChem.

All rows: whole-cell or culture tests; organism: Candida albicans; endpoint: MIC

Two numbers with a dash give a range or band. Lines come from different laboratories, so protocols vary.

{"compound": "CC1=C(CCO)C(=O)C(O)=C2C1=CC(=O)[C@H]1C(C)(C)CCC[C@]21C", "strain or isolate": "90028", "result": "0.19 µg/mL"}
{"compound": "CCOC(=O)c1csc(C(C)NC(=O)OC(C)(C)C)n1", "strain or isolate": "7 isolates", "result": "420 µM"}
{"compound": "O=C(/C(=C1/SCCN1c1ccccc1)n1ccnc1)c1ccc(Cl)cc1", "result": ">100 µg/mL"}
{"compound": "CS(C)=O", "strain or isolate": "F2 sensitive", "result": "6.25 µg/mL"}
{"compound": "CNC1C(C)OC(O[C@H]2c3cc(C)c(C(=O)N[C@H](C)C(=O)N[C@@H](C)C(=O)O)c(O)c3-c3c(cc4c(c3O)C(=O)c3cc(OC)cc(O)c3C4=O)[C@@H]2O)C(O)C1OC1OCC(O)C(O)C1O", "strain or isolate": "A9540", "result": ">100 µg/mL"}
{"compound": "CC(C)CC(NC(=O)OC(C)(C)C)c1nc(C(=O)O)co1", "strain or isolate": "7 isolates", "result": "428 µM"}
{"compound": "CCCCCCCC(=O)N[C@H]1C[C@H]2C(=O)NCCC[C@H](NC(=O)c3ccc(-c4ccc(-c5ccc(OCCCCC)cc5)cc4)cc3)C(=O)N[C@@H]([C@@H](C)O)C(=O)N3C[C@H](O)C[C@H]3C(=O)N[C@@H](CCc3ccc(O)cc3)C(=O)N[C@@H]([C@@H](C)O)C(=O)N2C1", "strain or isolate": "ATCC 38247", "result": ">100 µg/mL"}
{"compound": "CCC[C@H](O)C[C@@H]1CC[C@H](C)CCCCC(=O)N(C)[C@@H](Cc2ccc(OCCO)cc2)C(=O)O1", "strain or isolate": "TIMM1768", "result": "8 µg/mL"}
{"compound": "CCCCCCCCCCCCC#CCCC#CC(=O)O", "strain or isolate": "ATCC 60913", "result": "80.2 µM"}
{"compound": "CCCCCOc1ccc(-c2ccc(-c3ccc(C(=O)N[C@H]4C[C@@H](O)[C@@H](OCCN(C)CC)NC(=O)[C@@H]5[C@@H](O)[C@@H](C)CN5C(=O)[C@H]([C@H](C)O)NC(=O)[C@H]([C@H](O)[C@@H](O)c5ccc(O)cc5)NC(=O)[C@@H]5C[C@@H](O)CN5C(=O)[C@H]([C@H](C)O)NC4=O)cc3)cc2)cc1", "result": "0.156 µg/mL"}
{"compound": "Cc1ccccc1S(=O)(=O)NC(=O)Nc1ccc(S(=O)(=O)Nc2nnc(S(N)(=O)=O)s2)cc1", "strain or isolate": "C316", "result": "82 µg/mL"}
{"compound": "CCCCn1c(SCC(=O)Nc2c(C)n(C)n(-c3ccccc3)c2=O)nnc1-c1ccco1", "strain or isolate": "ATCC 10231", "result": "16 µg/mL"}
{"compound": "CC(C)N=C(N)c1ccc2nc(-c3ccc4c(c3)Cc3cc(-c5nc6ccc(C(N)=NC(C)C)cc6[nH]5)ccc3-4)[nH]c2c1", "strain or isolate": "Isolate 2370 fluconazole-resistant", "result": "1.56 µg/mL"}
{"compound": "Cc1ccc(-n2c(-c3ccccc3)nsc2=S)cc1", "result": "0.09 µg/mL"}
{"compound": "CC1CCS/C(=C(/C#N)n2ccnc2)S1", "result": "50 µg/mL"}
{"compound": "S=c1nc(-c2ccccc2)[nH]s1", "result": "0.13 µg/mL"}
{"compound": "Clc1ccc(CSc2ccccc2Cn2ccnc2)c(Cl)c1", "result": ">100 µg/mL"}
{"compound": "CC(C)(C)OC(=O)N1CCCC1c1nc(C(=O)NN)cs1", "strain or isolate": "7 isolates", "result": ">407 µM"}
{"compound": "CNOC(=O)[C@@H](C)NC(=O)c1c(C)cc2c(c1O)-c1c(cc3c(c1O)C(=O)c1cc(OC)cc(O)c1C3=O)[C@H](O)[C@H]2OC1OC(C)C(NC)C(OC2OCC(O)C(O)C2O)C1O", "strain or isolate": "A9540", "result": "6.3 µg/mL"}
{"compound": "COc1cc(O)c2c(c1)C(=O)c1c(cc3c(c1O)-c1c(cc(C)c(C(=O)N[C@H](CO)C(=O)O)c1O)[C@H](OC1OC(C)C(N)C(OC4OCC(O)C(O)C4O)C1O)[C@H]3O)C2=O", "strain or isolate": "A9540", "result": "6.3 µg/mL"}
{"compound": "COc1cc(CN2C=Cc3cc(OC)c(OC)c4nccc2c34)cc(OC)c1OC", "result": ">64 µg/mL"}
{"compound": "Cc1c(O)cccc1C(=O)N[C@@H](CSc1ccccc1)[C@H](O)CN1C[C@H]2CCCC[C@H]2C[C@H]1C(=O)NC(C)(C)C", "strain or isolate": "I54", "result": "64 µg/mL"}
{"compound": "C[C@@H](O)[C@@H]1NC(=O)[C@H](CCc2ccc(O)cc2)NC(=O)[C@@H]2C[C@@H](O)CN2C(=O)[C@H]([C@@H](C)O)NC(=O)[C@@H](NC(=O)c2ccc(N3CCN(c4ccc(O)cc4)CC3)cc2)CCCNC(=O)[C@@H]2C[C@H](N)CN2C1=O", "strain or isolate": "ATCC 38247", "result": "50 µg/mL"}
{"compound": "CC1=CS/C(=C(/C#N)n2ccnc2)S1", "result": ">100 µg/mL"}
{"compound": "Cc1c(NC(=O)CSc2nnc(-c3ccco3)n2-c2ccc(F)cc2)c(=O)n(-c2ccccc2)n1C", "strain or isolate": "ATCC 10231", "result": "16 µg/mL"}
{"compound": "CC(NC(=O)OC(C)(C)C)c1nc(C(=O)NN)cs1", "strain or isolate": "7 isolates", "result": "230–470 µM"}
{"compound": "CCCCCOc1ccc(-c2ccc(-c3ccc(C(=O)N[C@H]4CCCNC(=O)[C@@H]5[C@H](N)CCN5C(=O)[C@H]([C@@H](C)O)NC(=O)[C@H](CCc5ccc(O)cc5)NC(=O)[C@@H]5C[C@@H](O)CN5C(=O)[C@H]([C@@H](C)O)NC4=O)cc3)cc2)cc1", "strain or isolate": "ATCC 62376", "result": "0.2 µg/mL"}
{"compound": "COc1cc2c3c(cc[n+](Cc4ccccc4)c3c1OC)N(Cc1ccccc1)C=C2", "result": ">64 µg/mL"}
{"compound": "Cc1c(NC(=O)C(C)Sc2nnc(-c3ccco3)n2C2CCCCC2)c(=O)n(-c2ccccc2)n1C", "strain or isolate": "ATCC 10231", "result": "16 µg/mL"}
{"compound": "CCCCCCCCCCCCCC[C@@H]1CCCN1C", "strain or isolate": "IP4872", "result": "25 µg/mL"}
{"compound": "CNC1C(C)OC(O[C@H]2c3cc(C)c(C(=O)N[C@H](C)C(N)=O)c(O)c3-c3c(cc4c(c3O)C(=O)c3cc(OC)cc(O)c3C4=O)[C@@H]2O)C(O)C1OC1OCC(O)C(O)C1O", "strain or isolate": "A9540", "result": "6.3 µg/mL"}
{"compound": "C[C@H]1[C@H](O)[C@@H](C)/C=C/C=C/C=C/C=C/C=C/C=C/C=C/[C@H](O[C@@H]2O[C@H](C)[C@@H](O)[C@H](N)[C@@H]2O)C[C@@H]2O[C@](O)(C[C@@H](O)C[C@@H](O)CC[C@H](O)[C@@H](O)C[C@@H](O)CC(=O)O[C@H]1C)C[C@H](O)[C@H]2C(=O)O", "strain or isolate": "ATCC11651", "result": "1 µg/mL"}
{"compound": "CCCCCOc1ccc(-c2ccc(-c3ccc(C(=O)N[C@H]4C[C@@H](O)[C@@H](O)NC(=O)[C@@H]5[C@@H](O)[C@@H](C)CN5C(=O)[C@H]([C@H](C)O)NC(=O)[C@H]([C@H](O)[C@@H](O)c5ccc(O)cc5)NC(=O)[C@@H]5C[C@@H](O)CN5C(=O)[C@H]([C@H](C)O)NC4=O)cc3)cc2)cc1", "result": "0.005 µg/mL"}
{"compound": "CNn1c(-c2ccccc2)nn(Cc2ccccc2)c1=O", "strain or isolate": "ATCC16231", "result": ">250 µg/mL"}
{"compound": "CC(C)CC(NC(=O)OC(C)(C)C)c1nc(C(=O)O)cs1", "strain or isolate": "7 isolates", "result": "203 µM"}
{"compound": "Nc1ccc(S(=O)(=O)Nc2nnc(S(N)(=O)=O)s2)cc1", "strain or isolate": "C316", "result": ">100 µg/mL"}
{"compound": "O=c1snc(-c2ccccn2)n1-c1ccccc1", "result": "0.05 µg/mL"}
{"compound": "CCCCCCCCCC#CCCC#CC(=O)O", "strain or isolate": "ATCC 14053", "result": "11.5 µM"}
{"compound": "COc1cnc2c3c(nccc13)C(=O)c1ccccc1-2", "strain or isolate": "NIH B311", "result": "3.12 µg/mL"}
{"compound": "Cc1ccc(-n2c(SCC(=O)Nc3c(C)n(C)n(-c4ccccc4)c3=O)nnc2-c2ccco2)cc1", "strain or isolate": "ATCC 10231", "result": "16 µg/mL"}
{"compound": "Clc1ccc(CSc2ccccc2Cn2ccnc2)cc1", "result": "6.3 µg/mL"}
{"compound": "CCn1c(-c2ccccn2)nsc1=O", "result": "0.12 µg/mL"}
{"compound": "C=C1/C=C(\\C)[C@H](CC)OC(=O)[C@H](C)C(=O)C(O)(CO)C/C(OC)=C/[C@@H](C)C1", "strain or isolate": "CLY539", "result": "1 µg/mL"}
{"compound": "CCn1c(-c2ccccn2)noc1=S", "result": "0.95 µg/mL"}
{"compound": "CCCCCCC(=O)O[C@H]1Cc2c(O)cc(O)cc2O[C@@H]1c1ccc(O)c(O)c1", "strain or isolate": "ATCC 10231", "result": "128 µg/mL"}
{"compound": "COC1CC2CCC(C)C(O)(O2)C(=O)C(=O)N2CCCC2C(=O)OC(C(C)CC2CCC(O)C(OC)C2)CC(=O)C(C)/C=C(\\C)C(O)C(OC)C(=O)C(C)CC(C)/C=C/C=C/C=C/1C", "strain or isolate": "ATCC11651", "result": "0.3125 µg/mL"}
{"compound": "CNC1C(C)OC(O[C@H]2c3cc(C)c(C(=O)N[C@H](C)C(=O)OCOC(=O)C(C)(C)C)c(O)c3-c3c(cc4c(c3O)C(=O)c3cc(OC)cc(O)c3C4=O)[C@@H]2O)C(O)C1OC1OCC(O)C(O)C1O", "strain or isolate": "A9540", "result": ">100 µg/mL"}
{"compound": "CN[C@H]1CCCNC(=O)[C@@H]2C[C@H](N)CN2C(=O)[C@H]([C@@H](C)O)NC(=O)[C@H](CCc2ccc(O)cc2)NC(=O)[C@@H]2C[C@@H](O)CN2C(=O)[C@H]([C@@H](C)O)NC1=O", "strain or isolate": "ATCC 62376", "result": "12.5 µg/mL"}
{"compound": "CCc1n[nH]c(=O)n1N1C(=O)CCC1=O", "strain or isolate": "ATCC16231", "result": ">250 µg/mL"}
{"compound": "CC(C)CC(N)c1nc(C(=O)O)cs1", "strain or isolate": "7 isolates", "result": ">1000 µM"}
{"compound": "Cc1noc(=S)n1-c1ccccc1", "result": "0.52 µg/mL"}
{"compound": "CCCCCOc1ccc(-c2ccc(-c3ccc(C(=O)N[C@H]4CCCNC(=O)[C@@H]5C[C@H](O)CN5C(=O)[C@H]([C@@H](C)O)NC(=O)[C@H](CCc5ccc(O)cc5)NC(=O)[C@@H]5C[C@@H](O)CN5C(=O)[C@H]([C@@H](C)O)NC4=O)cc3)cc2)cc1", "strain or isolate": "ATCC 38247", "result": "1.56 µg/mL"}
{"compound": "CC1CCS/C(=C(/C#N)n2cnc3ccccc32)S1", "result": ">100 µg/mL"}
{"compound": "CCCCCCCCOc1ccc(N2CCN(c3ccc(C(=O)N[C@H]4CCCNC(=O)[C@@H]5C[C@H](N=C(N)N)CN5C(=O)[C@H](CCN)NC(=O)[C@H](CCc5ccc(O)cc5)NC(=O)[C@@H]5CCCN5C(=O)[C@H]([C@@H](C)O)NC4=O)cc3)CC2)cc1", "strain or isolate": "ATCC 62376", "result": "0.2 µg/mL"}
{"compound": "CC(=O)OCCn1c(Cc2ccc(Cl)cc2)nn(C(C)=O)c1=O", "strain or isolate": "ATCC16231", "result": ">250 µg/mL"}
{"compound": "Cn1c(-c2ccncc2)noc1=S", "result": "1.02 µg/mL"}
{"compound": "CCC(C)CC(C)CCCCCCCCC(=O)N[C@H]1C[C@@H](O)[C@H](NCCN)NC(=O)[C@@H]2[C@@H](O)CCN2C(=O)[C@H]([C@H](O)CCN)NC(=O)[C@H]([C@H](O)[C@@H](O)c2ccc(O)cc2)NC(=O)[C@@H]2C[C@@H](O)CN2C(=O)[C@H]([C@@H](C)O)NC1=O", "strain or isolate": "NR3", "result": "4 µg/mL"}
{"compound": "CCCCC/C=C/CCC(=O)[C@H]1O[C@H]1C(=O)N1COC1", "strain or isolate": "G2-sensitive", "result": "12.5 µg/mL"}
{"compound": "CCCCCCC(=O)O[C@@H]1Cc2c(O)cc(O)cc2O[C@@H]1c1ccc(O)c(O)c1", "strain or isolate": "ATCC 10231", "result": "128 µg/mL"}
{"compound": "O=c1ccc(O)cn1CC1=CC=C(CO)SS1", "strain or isolate": "ATCC10259", "result": ">100 µg/mL"}
{"compound": "CC(C)(C)OC(=O)N1CCCC1c1nc(C(N)=O)cs1", "strain or isolate": "7 isolates", "result": "454 µM"}

6 of the rows above, restated:

compound,strain or isolate,result
CNC1C(C)OC(O[C@H]2c3cc(C)c(C(=O)N[C@H](C)C(=O)N[C@@H](C)C(=O)O)c(O)c3-c3c(cc4c(c3O)C(=O)c3cc(OC)cc(O)c3C4=O)[C@@H]2O)C(O)C1OC1OCC(O)C(O)C1O,A9540,>100 µg/mL
Nc1ccc(S(=O)(=O)Nc2nnc(S(N)(=O)=O)s2)cc1,C316,>100 µg/mL
COc1cnc2c3c(nccc13)C(=O)c1ccccc1-2,NIH B311,3.12 µg/mL
CC(C)N=C(N)c1ccc2nc(-c3ccc4c(c3)Cc3cc(-c5nc6ccc(C(N)=NC(C)C)cc6[nH]5)ccc3-4)[nH]c2c1,Isolate 2370 fluconazole-resistant,1.56 µg/mL
CCCCCCCC(=O)N[C@H]1C[C@H]2C(=O)NCCC[C@H](NC(=O)c3ccc(-c4ccc(-c5ccc(OCCCCC)cc5)cc4)cc3)C(=O)N[C@@H]([C@@H](C)O)C(=O)N3C[C@H](O)C[C@H]3C(=O)N[C@@H](CCc3ccc(O)cc3)C(=O)N[C@@H]([C@@H](C)O)C(=O)N2C1,ATCC 38247,>100 µg/mL
CCC[C@H](O)C[C@@H]1CC[C@H](C)CCCCC(=O)N(C)[C@@H](Cc2ccc(OCCO)cc2)C(=O)O1,TIMM1768,8 µg/mL